# Reference: the supplement of paper PMC12637763
# Changes are numbered by the printed parent chain. Some of the results follow. Env chains of viruses from a treatment-interruption trial, translated from the printed DNA. IC50 / IC80 of two broadly neutralizing antibodies; lower = more sensitive virus; >50 µg/ml means not reached and <0.001 µg/ml is below the lowest dose. No active / inactive call.
# B1: HIV-1 Env, rebound clone, placebo arm (protein)
# chain: MRVKGIRKSCQRLWRWGIMLLGMLMISSATEKLWVTVYYGVPVWKEANTTLFCASDAKAYDTEAHNVWATHACVPTDPNPQELDLENVTENFNMWKNGMVEQMHEDVISLWDQSLKPCVKLTPLCVTLNCTNDVNLRVNSSNSNSSINSSSSISNSSIEEKGEIKNCSFNITTSIRDKVTKEYALFYRLDIVSIKDDKSDNSNNTNTRYRLINCNTSVITQACPKVSFEPIPIHYCAPAGFAILKCKDREFNGSGTCQNVSTVQCTHGIKPVVSTQLLLNGSLAEGEVVIRSENFSDNAKTIIVQLSRPVVINCTRPNNNTRKSIHIAPGRTFYATGDIIGDIRQAHCNISKRDWNKTLKEVKGKLEKQYNKTILFNQSSGGDPEIVFHTFNCAGEFFYCNTTNLFNNNITINNGTNGTNTNENITLPCRIKQIINLWQEVGKAMYAPPIKGQIRCSSNITGLLLTRDGGLNENRTNDTVRPGGGDMRDNWRSELYRYKVVEIEPLGIAPTKAKRRVVQREKRAVGAIGAMFLGLLGAAGSTMGAASITLTVQARLVLSGIVQQQNNLLRAIEAQQHLLQLTVWGIKQLQARVLAVERYLKDQQLLGIWGCSGKLICTTSVPWNSSWSNRSLEYIWNNMTWMQWEREIDNYTGKIYTLIEEAQHKQEENELELLKLDEWSNLWNWFDISKWLWYIKIFIMIVGGLIGLRIVFAVISIVNRVRKGYSPLSFQTHFPAPRGPDRPGGTEEEGGDRDRDRSTRLVDGFLALVWDDLRSLILFLYHHLRDLLLIITRIVGLLGRRGWEILKYWWNLLQYWSRELKLSAISLYNATAVAVAEGTDRVIEVVQRIFRGVLHIPRRIRQGLERILV
# B2: HIV-1 Env, rebound clone, placebo arm (protein)
# chain: B1 chain with L464F, I856V
# B3: HIV-1 Env, rebound clone, placebo arm (protein)
# chain: B1 chain with V702I, I856V
# Target: antibody 10-1074
# Experiment: neutralization IC50; higher = virus less sensitive to the antibody
# Method: (§1)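 Pseudovirus bearing the Env chain mixed with antibody, from 50 µg/ml in fivefold dilutions, on TZM-bl reporter cells, in duplicate.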
row,Binder,neutralization IC50 [µg/mL]
1,B1,0.017
2,B2,0.014
3,B3,0.022

# Target: antibody 3BNC117
# Experiment: as above
# Method: as §1
row,Binder,neutralization IC50 [µg/mL]
1,B1,0.081
2,B2,0.063
3,B3,0.129

# Target: antibody 10-1074
# Experiment: neutralization IC80; higher = virus less sensitive to the antibody
# Method: as §1
row,Binder,neutralization IC80 [µg/mL]
1,B1,0.048
2,B2,0.048
3,B3,0.06

# Target: antibody 3BNC117
# Experiment: as above
# Method: as §1
row,Binder,neutralization IC80 [µg/mL]
1,B1,0.283
2,B2,0.168
3,B3,0.339
